# Test results taken from PMC9259647 (Scientific Reports, 2022).
# System: HXYN2
structure (smiles),measurement,setting,value
"COc1cc(/C=C/C(=O)O)ccc1O [FA, 3-(4-hydroxy-3-methoxy-phenyl-prop-2-enoic)]",Hill coefficient (N),FA 0.25 mg/mL,2.38 ± 0.21
same,Hill coefficient (N),FA 0.5 mg/mL,1.85 ± 0.96
same,Hill coefficient (N),FA 1 mg/mL,1.93 ± 0.05

# Where two headings read alike, the source gives them in different places.
